Measured values taken from patent publication US10308938B2, “Compositions and methods to activate or inhibit toll-like receptor signaling” (priority 2014, dated 2019).

Tested on: HIV-1NL-D
Assay: HIV-1 in vitro infection of CD4+ T cells
Type: cell-based
Settings: treatment before infection, MOI 0.001
Procedure: Preparation of HIV-1 virus stocks. HIV-1 proviral DsRed-tagged DNA pNL-D (derived from the prototype HIV-1 proviral DNA pNL432) was kindly provided by Dr. Yasuko Tsunetsugu-Yokota. 293T cells were used to prepare viral stocks following published protocols with minor modifications. In brief, 293T cells were plated at 0.5×10^6/well in 12-well plates and transfected with 2 μg pNL-D using Lipofectamine 2000 (Invitrogen) for 48 hours. Culture supernatant was treated with benzonase (1U/ml) for 30 minutes at 37 C, cleared by filtration and titrated on 293T cells. Stocks were stored at −80 C.
HIV-1 in vitro infection. CD4^+ T cells were stimulated with anti-CD3 (1 μg/ml) and anti-CD28 (1 μg/ml) for 48 hours and subsequently infected with HIV-1 at a MOI of 0.001 (concentration within the physiological range). Viability and cytokine secretion was measured every 48 hours for a total of 11 days after infection.
For HIV-1 infection on TLR7-deficient cells, CD4^+ T cells were stimulated as above and transduced with the corresponding lentiviral particles. 48 hours after transduction, the cells were infected with HIV-1NL-D at a MOI of 0.001. Viability and frequency of HIV-1-infected cells were measured at different time points by LIVE/DEAD cell dye staining and fixation with 1% PFA (to avoid DsRed signal loss). […]

IL-2: IL-2 from the AIDS Research and Reference Reagent Program, added six hours before HIV-1 infection
frequency of HIV-1-infected CD4+ T cells: did not affect
